As usually defined, the IC50 is the point on the concentration scale where inhibition reaches its midpoint.

The test system of one experiment is dog hepatocytes. As to conditions: read-out: IC50 values of cell viability, static plate cultures.

Turning to aflatoxin B1, the figures for the IC50 in the experiment with human hepatocytes and in the experiment on dog hepatocytes were 520 nM and 10 nM, respectively.

For the origin of these results see US20170158997A1.
